Laboratory results as given in article PMC6222832, “Kinetic Characterization of Novel HIV-1 Entry Inhibitors: Discovery of a Relationship between Off-Rate and Potency” (Molecules : A Journal of Synthetic Chemistry and Natural …, 2018).

Molecular target: B41 SOSIP.664 gp140 trimer (Human immunodeficiency virus type 1, UniProt B3UES2, A505C/E513R/I563P/INS515RR/K514R/T609C)
Test: SPR direct interaction analysis, Biacore 8K
Parameters: species or system HIV-1
Settings: calculated from rate constants, 1:1 binding model

COc1cnc(-n2cnc(C)n2)c2[nH]cc(C(=O)C(=O)N3CC4C=NN(c5nnnn5-c5ccccc5)C4C3)c12 (stereo not shown) [SC39]
Kd: 27400 nM

COc1cnc(-n2cnc(C)n2)c2[nH]cc(C(=O)C(=O)N3CC4CN(C(=O)c5ccccc5)CC4C3)c12 (stereo not shown) [SC11]
Kd: 66.3 nM

COc1cnc(-n2cnc(C)n2)c2[nH]cc(C(=O)C(=O)N3CC(CSC(=O)c4ccccc4)C3)c12 [SC16]
Kd: 69.3 nM

COc1cnc(-n2cnc(C)n2)c2[nH]cc(C(=O)C(=O)N(C)C3CN(C(=O)c4ccccc4)C3)c12 [SC18]
Kd: 1560 nM
